The supplement of paper PMC9931576
Human monoclonal antibodies against the spike receptor-binding domain (heavy:light variable regions). IC50 against pseudoviruses bearing the spike of naturally observed variants; lower = stronger; >10 µg/ml means not reached at the top dose. No active / inactive call. The stated detection limit is 0.0005 µg/ml; values near or below 0.001 µg/ml lie at the floor of the assay.

B1: BD55-6648 (protein)
chain 1: EVQLLESGGGLIQPGGSLRLSCVASGFTFSNYAMSWVRQAPGKGLEWVSSISDSDETTHLADSVKGRFTVSRDASKNTLYLHMNSLRGEDTAAYYCAGGWIYNNVLTGFFSFYYGMDVWGQGTTVTVSS
chain 2: DIVMTQTPLSLPVTPGEPASISCRSSQSLLDSDGGNTYLDWYLQKPGQSPQLLIYMVSYRASGVPDRFSGSGSDTDFTLEISRVEAEDVGVYYCMQRKEFPLTFGGGTKVEIK
B2: BD55-6652 (protein)
chain 1: QVQLVQSGAEVKKPGSSLKVSCRVSGGTFSNRGISWVRQAPGQGLEWIGRIIPILNKAFYTEKFQGRLTVTADTSTNTAYMELNGLRSEDTAVYYCARGGYIIRSFDPWGQGTLVIVSS
chain 2: IVLTQSPLSLPVTPGEPASISCRSSQSLLHSNGNNYLDWYLQKPGQSPQLLIYLGSNRASGVPDRFSGSGSGTDFTLKISRVEADDVGVYYCMQALQAETFGQGTKVEI
B3: BD55-6653 (protein)
chain 1: EVQLVESGGGLVQPGRSLRLSCTASGFIFSDHGINWVRQAPGKGLEWVGFIRRKAYGGTTEYAASVKGRITISRDDSKSIAYLQMNSLKTEDTGVYYCTRPPIVVADDYYFDYWGQGTLVTVSS
chain 2: SYELTQPPSVSVSPGQTARITCSGNAFPQQYAYWYQQKPGRAPVLVIYKDKERPSGIPERFSGSSSGTTVTLTIGGVQAEDEADYYCQSADSRAVVFGGGTKLTVL
B4: BD55-6654 (protein)
chain 1: EVRLVESGGGLVKPGGSLRLSCAASGFIFDTYNMNWVRQAPGKGLEWVSSITPTSSYIYYADSVKGRFTISRDNAKNSLYLQMNSLRAEDTAVYYCARDGVPFWSNPNYYYYYMDVWGKGTTVSVSS
chain 2: EIVLTQSPGTLSLSPGERATLSCRASQSVYNSYLAWYQQKPGQAPRLLIYGASSRATGIPDRFSGSGSGTDFTLTISRLEPEDFALYYCQQYASAPRTFGQGTKVEIK
B5: BD55-1294 (protein)
chain 1: QLHLQESGPGLVKPSETLSLTCTVSGGSIFSSTYYWGWIRQTPGKGLEWIGSFYNGGSTYYNPSLESRVTISEDTSKNQFSLKLSSVTAADTAVYYCARDLSETASYHNWFDPWGQGTLVTVSS
chain 2: DIQLTQSPSFLSASVGDRITITCRASQAISNYLAWYQQKPGKAPKLLIYGASTLHSGVPSRFSGSHSGSEFTLTISGLQPEDFATYYCQQLNSFGPGTKVDIK
B6: BD55-6659 (protein)
chain 1: VPLVQSGTVVKKPGESVRISCKGSGYSFTTHWIAWVRQMPGKGLEWMGVISPGDSDTRYSPSFQGQVTISADKSVSTAYLQWDSLKASDTAMYYCARLLCGGDCPLDYWGQGTLVTVSS
chain 2: DIQMTQSPSTLSASVGDRVTITCRASQSISKWVAWYQQKPGKAPNLLIYDGSSLESAVPSRFSGSGSGTEFTLTISSLQPDDFATYYCQQYNSYPRTFGQGTKVEVK

Target: SARS-CoV-2 Omicron BA.1 spike pseudovirus
Assay: pseudovirus neutralization IC50; higher = weaker neutralization
Protocol: (§1)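 Single-round VSV luciferase pseudovirus mixed with antibody dilutions for 1 h and put on Huh-7 cells for about a day; IC50 from the dose curve.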

Row | Binder | pseudovirus neutralization IC50 [µg/mL]
1 | B1 | > 10
2 | B2 | > 10
3 | B3 | > 10
4 | B4 | > 10
5 | B5 | > 10
6 | B6 | 4.36

Target: SARS-CoV-2 Omicron BA.2 spike pseudovirus
Assay: as above
Protocol: as §1

Row | Binder | pseudovirus neutralization IC50 [µg/mL]
7 | B1 | > 10
8 | B2 | > 10
9 | B3 | > 10
10 | B4 | > 10
11 | B5 | > 10
12 | B6 | 7.66

Target: SARS-CoV-2 Omicron BA.2.75 spike pseudovirus
Assay: as above
Protocol: as §1

Row | Binder | pseudovirus neutralization IC50 [µg/mL]
13 | B1 | > 10
14 | B2 | > 10
15 | B3 | > 10
16 | B4 | > 10
17 | B5 | > 10
18 | B6 | 6.47

Target: SARS-CoV-2 Omicron BA.5 spike pseudovirus
Assay: as above
Protocol: as §1

Row | Binder | pseudovirus neutralization IC50 [µg/mL]
19 | B1 | > 10
20 | B2 | > 10
21 | B3 | > 10
22 | B4 | > 10
23 | B5 | > 10
24 | B6 | > 10

Target: SARS-CoV-2 Omicron BQ.1.1 spike pseudovirus
Assay: as above
Protocol: as §1

Row | Binder | pseudovirus neutralization IC50 [µg/mL]
25 | B1 | > 10
26 | B2 | > 10
27 | B3 | > 10
28 | B4 | > 10
29 | B5 | > 10
30 | B6 | > 10

Target: SARS-CoV-2 Omicron XBB spike pseudovirus
Assay: as above
Protocol: as §1

Row | Binder | pseudovirus neutralization IC50 [µg/mL]
31 | B1 | > 10
32 | B2 | > 10
33 | B3 | > 10
34 | B4 | > 10
35 | B5 | > 10
36 | B6 | > 10

Target: SARS-CoV-2 early D614G spike pseudovirus
Assay: as above
Protocol: as §1

Row | Binder | pseudovirus neutralization IC50 [µg/mL]
37 | B1 | > 10
38 | B2 | > 10
39 | B3 | 9.67
40 | B4 | > 10
41 | B5 | 0.886
42 | B6 | 5.23
